The list shows a part of the results. The calls are words filed in the database; no cut-off is given here. Only a part of the results of these assays is listed, not drawn at random.

This test concerns the target Thioredoxin glutathione reductase (Schistosoma mansoni) (UniProt Q962Y6). Nature of the test: qHTS Assay for the Inhibitors of Schistosoma Mansoni Peroxiredoxins. [Related pubchem assays: 1011 (Confirmation Concentration-Response Assay for Inhibitors of the Schistosoma mansoni Redox Cascade ), 448 (Schistosoma Mansoni Peroxiredoxins (Prx2) and thioredoxin glutathione reductase (TGR) coupled assay)]. It is filed as functional.
Turning to `CCc1nc2c([nH]1)c1no[n+]([O-])c1c1no[n+]([O-])c21`, the Potency was active: 15.8 µM.

The values above are taken from ChEMBL document CHEMBL1201862, “PubChem BioAssay data set” (2004).
